Results as given in ChEMBL document CHEMBL5346973 (J Med Chem, 2023).

Protein sequences, listed by entry. Tags and fused reporters are not part of them. Residues count along the entry.
UniProt P04756, 21-457 limits assumed: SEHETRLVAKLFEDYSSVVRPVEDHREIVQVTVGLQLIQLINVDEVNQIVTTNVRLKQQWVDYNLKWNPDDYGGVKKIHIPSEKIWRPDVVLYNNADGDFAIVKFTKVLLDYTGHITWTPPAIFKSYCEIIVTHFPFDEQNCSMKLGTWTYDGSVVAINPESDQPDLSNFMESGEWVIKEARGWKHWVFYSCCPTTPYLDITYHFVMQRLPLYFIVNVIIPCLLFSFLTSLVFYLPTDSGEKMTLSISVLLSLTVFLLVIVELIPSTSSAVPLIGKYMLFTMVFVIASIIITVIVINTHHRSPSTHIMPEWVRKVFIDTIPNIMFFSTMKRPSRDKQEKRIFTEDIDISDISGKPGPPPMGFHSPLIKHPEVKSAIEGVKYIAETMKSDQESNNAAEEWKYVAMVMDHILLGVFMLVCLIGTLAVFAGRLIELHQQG
UniProt P09690, 24-501 partner limits assumed: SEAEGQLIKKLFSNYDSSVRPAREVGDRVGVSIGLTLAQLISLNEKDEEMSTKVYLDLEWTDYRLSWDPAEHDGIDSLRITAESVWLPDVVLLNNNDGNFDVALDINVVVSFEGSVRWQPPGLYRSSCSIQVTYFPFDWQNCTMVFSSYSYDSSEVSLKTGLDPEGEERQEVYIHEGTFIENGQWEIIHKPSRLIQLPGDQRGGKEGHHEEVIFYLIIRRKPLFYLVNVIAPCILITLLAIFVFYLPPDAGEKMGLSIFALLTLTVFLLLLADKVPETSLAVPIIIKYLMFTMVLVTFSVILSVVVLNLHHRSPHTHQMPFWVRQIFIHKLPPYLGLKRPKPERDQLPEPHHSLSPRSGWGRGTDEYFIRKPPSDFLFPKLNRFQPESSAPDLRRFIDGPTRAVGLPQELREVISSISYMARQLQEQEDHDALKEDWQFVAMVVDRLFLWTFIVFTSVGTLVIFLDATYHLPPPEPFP
UniProt P02716, 25-520 partner limits assumed: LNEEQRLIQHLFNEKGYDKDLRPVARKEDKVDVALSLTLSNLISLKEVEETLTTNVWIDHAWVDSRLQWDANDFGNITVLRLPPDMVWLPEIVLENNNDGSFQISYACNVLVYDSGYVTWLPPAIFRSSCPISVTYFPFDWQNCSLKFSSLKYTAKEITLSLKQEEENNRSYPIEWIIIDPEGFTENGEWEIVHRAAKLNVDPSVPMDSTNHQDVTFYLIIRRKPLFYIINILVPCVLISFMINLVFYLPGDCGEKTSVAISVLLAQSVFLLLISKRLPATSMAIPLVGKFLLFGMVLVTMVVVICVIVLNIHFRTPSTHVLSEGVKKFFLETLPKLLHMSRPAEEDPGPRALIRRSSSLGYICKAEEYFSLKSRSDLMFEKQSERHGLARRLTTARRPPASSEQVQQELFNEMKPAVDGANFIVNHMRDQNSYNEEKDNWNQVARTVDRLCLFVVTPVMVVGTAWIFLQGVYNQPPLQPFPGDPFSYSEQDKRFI
UniProt P20782, 21-493 partner limits assumed: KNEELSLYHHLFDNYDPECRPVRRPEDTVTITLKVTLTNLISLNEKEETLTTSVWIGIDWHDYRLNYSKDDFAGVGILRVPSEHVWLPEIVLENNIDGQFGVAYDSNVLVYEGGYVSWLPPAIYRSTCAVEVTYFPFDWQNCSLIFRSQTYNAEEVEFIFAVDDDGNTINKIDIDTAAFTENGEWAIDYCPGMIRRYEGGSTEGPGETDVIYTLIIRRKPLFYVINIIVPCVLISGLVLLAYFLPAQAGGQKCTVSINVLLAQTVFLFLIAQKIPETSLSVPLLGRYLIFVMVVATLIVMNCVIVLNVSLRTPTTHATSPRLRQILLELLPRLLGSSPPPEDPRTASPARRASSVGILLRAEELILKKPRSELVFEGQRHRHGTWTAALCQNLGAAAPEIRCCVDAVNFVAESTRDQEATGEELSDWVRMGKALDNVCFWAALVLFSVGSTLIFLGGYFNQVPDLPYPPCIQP

How the values were obtained:
[1] = Selectivity ratio of IC50 for mouse alpha1beta1deltaepsilon nACh receptor to IC50 for rat alpha9alpha10 nACh receptor
[2] = molecular target: Nicotinic acetylcholine receptor alpha1/beta1/epsilon/delta (Mus musculus) (UniProt P04756+P09690+P02716+P20782); experiment: Antagonist activity at mouse alpha1beta1deltaepsilon nACh receptor expressed in Xenopus oocyte assessed as inhibition of acetylcholine-induced response at -70 mV holding potential by measuring ratio of IC50 by voltage-clamp based electrophysiological assay relative to GeXIVA; settings: filed as antagonist

Row | Structure (SMILES) | Ratio IC50 [1] | Ratio IC50 [2]
1 | CC[C@H](C)[C@@H]1NC(=O)[C@H](CCCNC(=N)N)NC(=O)[C@H](CCCNC(=N)N)NC(=O)[C@@H](NC(=O)[C@H](Cc2ccc(O)cc2)NC(=O)[C@H](C)NC(=O)[C@H](CCCNC(=N)N)NC(=O)[C@H](CCCNC(=N)N)NC(=O)[C@H](CCCNC(=N)N)NC(=O)[C@H](CC(=O)O)NC(=O)[C@H](Cc2ccc(O)cc2)NC(=O)[C@@H]2CCCN2C(=O)[C@H](CO)NC(=O)[C@H](CCCNC(=N)N)NC(=O)[C@@H]2CSSC[C@H](NC(=O)[C@@H](N)[C@@H](C)O)C(=O)N[C@@H](CCCNC(=N)N)C(=O)N[C@@H](CO)C(=O)N[C@@H](CO)C(=O)NCC(=O)N[C@@H](CCCNC(=N)N)C(=O)N[C@@H](Cc3ccc(O)cc3)C(=O)N2)CSSC[C@@H](C(=O)N[C@H](C(=O)O)C(C)C)NC(=O)[C@H](C)NC(=O)[C@H](CC(=O)O)NC(=O)[C@H]([C@@H](C)O)NC1=O | 126 | 13.1
2 | CC[C@H](C)[C@@H]1NC(=O)[C@H](CCCNC(=N)N)NC(=O)[C@H](CCCNC(=N)N)NC(=O)[C@@H]2CSSC[C@H](NC(=O)[C@H](Cc3ccc(O)cc3)NC(=O)[C@H](CCCNC(=N)N)NC(=O)CNC(=O)[C@H](CO)NC(=O)[C@H](CO)NC(=O)[C@H](CCCNC(=N)N)NC(=O)[C@@H](NC(=O)[C@@H](N)[C@@H](C)O)CSSC[C@@H](C(=O)N[C@H](C(=O)O)C(C)C)NC(=O)[C@H](C)NC(=O)[C@H](CC(=O)O)NC(=O)[C@H](C)NC1=O)C(=O)N[C@@H](CCCNC(=N)N)C(=O)N[C@@H](CO)C(=O)N1CCC[C@H]1C(=O)N[C@@H](Cc1ccc(O)cc1)C(=O)N[C@@H](CC(=O)O)C(=O)N[C@@H](CCCNC(=N)N)C(=O)N[C@@H](CCCNC(=N)N)C(=O)N[C@@H](CCCNC(=N)N)C(=O)N[C@@H](CCCNC(=N)N)C(=O)N[C@@H](Cc1ccc(O)cc1)C(=O)N2 | 19.7 | 0.8
3 | CC(C)[C@H](NC(=O)[C@@H]1CSSC[C@H](NC(=O)[C@@H](N)[C@@H](C)O)C(=O)N[C@@H](CCCNC(=N)N)C(=O)N[C@@H](CO)C(=O)N[C@@H](CO)C(=O)NCC(=O)N[C@@H](CCCNC(=N)N)C(=O)N[C@@H](Cc2ccc(O)cc2)C(=O)N[C@H]2CSSC[C@H](NC(=O)[C@H](Cc3ccc(O)cc3)NC(=O)[C@H](CCCNC(=N)N)NC(=O)[C@H](CCCNC(=N)N)NC(=O)[C@H](CCCNC(=N)N)NC(=O)[C@H](CCCNC(=N)N)NC(=O)[C@H](CC(=O)O)NC(=O)[C@H](Cc3ccc(O)cc3)NC(=O)[C@@H]3CCCN3C(=O)[C@H](CO)NC(=O)[C@H](CCCNC(=N)N)NC2=O)C(=O)N[C@@H](CCCNC(=N)N)C(=O)N[C@@H](CCCNC(=N)N)C(=O)N[C@@H](C)C(=O)N[C@@H]([C@@H](C)O)C(=O)N[C@@H](CC(=O)O)C(=O)N[C@@H](C)C(=O)N1)C(=O)O | 664 | 1.1
4 | CC[C@H](C)[C@@H]1NC(=O)[C@H](CCCNC(=N)N)NC(=O)[C@H](CCCNC(=N)N)NC(=O)[C@@H](NC(=O)[C@H](Cc2ccc(O)cc2)NC(=O)[C@H](CCCNC(=N)N)NC(=O)[C@H](CCCNC(=N)N)NC(=O)[C@H](CCCNC(=N)N)NC(=O)[C@H](CCCNC(=N)N)NC(=O)[C@H](CC(=O)O)NC(=O)[C@H](Cc2ccc(O)cc2)NC(=O)[C@@H]2CCCN2C(=O)[C@@H](CO)NC(=O)[C@H](C)NC(=O)[C@@H]2CSSC[C@H](NC(=O)[C@@H](N)[C@@H](C)O)C(=O)N[C@@H](CCCNC(=N)N)C(=O)N[C@@H](CO)C(=O)N[C@@H](CO)C(=O)NCC(=O)N[C@@H](CCCNC(=N)N)C(=O)N[C@@H](Cc3ccc(O)cc3)C(=O)N2)CSSC[C@@H](C(=O)N[C@H](C(=O)O)C(C)C)NC(=O)[C@H](C)NC(=O)[C@H](CC(=O)O)NC(=O)[C@H]([C@@H](C)O)NC1=O | 14.4 | 2
5 | CC[C@H](C)[C@@H]1NC(=O)[C@H](CCCNC(=N)N)NC(=O)[C@H](CCCNC(=N)N)NC(=O)[C@@H]2CSSC[C@H](NC(=O)[C@H](Cc3ccc(O)cc3)NC(=O)[C@H](CCCNC(=N)N)NC(=O)CNC(=O)[C@H](CO)NC(=O)[C@H](CO)NC(=O)[C@H](CCCNC(=N)N)NC(=O)[C@@H](NC(=O)[C@@H](N)[C@@H](C)O)CSSC[C@@H](C(=O)N[C@H](C(=O)O)C(C)C)NC(=O)[C@H](C)NC(=O)[C@H](CC(=O)O)NC(=O)[C@H]([C@@H](C)O)NC1=O)C(=O)N[C@@H](CCCNC(=N)N)C(=O)N[C@@H](CO)C(=O)N1CCC[C@H]1C(=O)N[C@@H](Cc1ccc(O)cc1)C(=O)N[C@@H](CC(=O)O)C(=O)N[C@@H](CCCNC(=N)N)C(=O)N[C@@H](CCCNC(=N)N)C(=O)N[C@@H](C)C(=O)N[C@@H](CCCNC(=N)N)C(=O)N[C@@H](Cc1ccc(O)cc1)C(=O)N2 | 15.9 | 1.1
6 | CC[C@H](C)[C@@H]1NC(=O)[C@H](CCCNC(=N)N)NC(=O)[C@H](CCCNC(=N)N)NC(=O)[C@@H]2CSSC[C@H](NC(=O)[C@H](Cc3ccc(O)cc3)NC(=O)[C@H](CCCNC(=N)N)NC(=O)CNC(=O)[C@H](CO)NC(=O)[C@H](CO)NC(=O)[C@H](CCCNC(=N)N)NC(=O)[C@@H](NC(=O)[C@H](C)N)CSSC[C@@H](C(=O)N[C@H](C(=O)O)C(C)C)NC(=O)[C@H](C)NC(=O)[C@H](CC(=O)O)NC(=O)[C@H]([C@@H](C)O)NC1=O)C(=O)N[C@@H](CCCNC(=N)N)C(=O)N[C@@H](CO)C(=O)N1CCC[C@H]1C(=O)N[C@@H](Cc1ccc(O)cc1)C(=O)N[C@@H](CC(=O)O)C(=O)N[C@@H](CCCNC(=N)N)C(=O)N[C@@H](CCCNC(=N)N)C(=O)N[C@@H](CCCNC(=N)N)C(=O)N[C@@H](CCCNC(=N)N)C(=O)N[C@@H](Cc1ccc(O)cc1)C(=O)N2 | 95 | 1.6
7 | CC[C@H](C)[C@@H]1NC(=O)[C@H](CCCNC(=N)N)NC(=O)[C@H](CCCNC(=N)N)NC(=O)[C@@H]2CSSC[C@H](NC(=O)[C@H](Cc3ccc(O)cc3)NC(=O)[C@H](CCCNC(=N)N)NC(=O)CNC(=O)[C@H](CO)NC(=O)[C@H](CO)NC(=O)[C@H](CCCNC(=N)N)NC(=O)[C@@H](NC(=O)[C@@H](N)[C@@H](C)O)CSSC[C@@H](C(=O)N[C@H](C(=O)O)C(C)C)NC(=O)[C@H](C)NC(=O)[C@H](CC(=O)O)NC(=O)[C@H]([C@@H](C)O)NC1=O)C(=O)N[C@@H](CCCNC(=N)N)C(=O)N[C@@H](CO)C(=O)N1CCC[C@H]1C(=O)N[C@@H](Cc1ccc(O)cc1)C(=O)N[C@@H](CC(=O)O)C(=O)N[C@@H](CCCNC(=N)N)C(=O)N[C@@H](C)C(=O)N[C@@H](CCCNC(=N)N)C(=O)N[C@@H](CCCNC(=N)N)C(=O)N[C@@H](Cc1ccc(O)cc1)C(=O)N2 | 19.6 | 1.9
8 | CC[C@H](C)[C@@H]1NC(=O)[C@H](C)NC(=O)[C@H](CCCNC(=N)N)NC(=O)[C@@H](NC(=O)[C@H](Cc2ccc(O)cc2)NC(=O)[C@H](CCCNC(=N)N)NC(=O)[C@H](CCCNC(=N)N)NC(=O)[C@H](CCCNC(=N)N)NC(=O)[C@H](CCCNC(=N)N)NC(=O)[C@H](CC(=O)O)NC(=O)[C@H](Cc2ccc(O)cc2)NC(=O)[C@@H]2CCCN2C(=O)[C@H](CO)NC(=O)[C@H](CCCNC(=N)N)NC(=O)[C@@H]2CSSC[C@H](NC(=O)[C@@H](N)[C@@H](C)O)C(=O)N[C@@H](CCCNC(=N)N)C(=O)N[C@@H](CO)C(=O)N[C@@H](CO)C(=O)NCC(=O)N[C@@H](CCCNC(=N)N)C(=O)N[C@@H](Cc3ccc(O)cc3)C(=O)N2)CSSC[C@@H](C(=O)N[C@H](C(=O)O)C(C)C)NC(=O)[C@H](C)NC(=O)[C@H](CC(=O)O)NC(=O)[C@H]([C@@H](C)O)NC1=O | 102 | 10.5
9 | CC[C@H](C)[C@@H]1NC(=O)[C@H](CCCNC(=N)N)NC(=O)[C@H](CCCNC(=N)N)NC(=O)[C@@H](NC(=O)[C@H](Cc2ccc(O)cc2)NC(=O)[C@H](CCCNC(=N)N)NC(=O)[C@H](CCCNC(=N)N)NC(=O)[C@H](CCCNC(=N)N)NC(=O)[C@H](CCCNC(=N)N)NC(=O)[C@H](CC(=O)O)NC(=O)[C@H](Cc2ccc(O)cc2)NC(=O)[C@H](C)NC(=O)[C@H](CO)NC(=O)[C@H](CCCNC(=N)N)NC(=O)[C@@H]2CSSC[C@H](NC(=O)[C@@H](N)[C@@H](C)O)C(=O)N[C@H](CCCNC(=N)N)C(=O)N[C@@H](CO)C(=O)N[C@@H](CO)C(=O)NCC(=O)N[C@@H](CCCNC(=N)N)C(=O)N[C@@H](Cc3ccc(O)cc3)C(=O)N2)CSSC[C@@H](C(=O)N[C@H](C(=O)O)C(C)C)NC(=O)[C@H](C)NC(=O)[C@H](CC(=O)O)NC(=O)[C@H]([C@@H](C)O)NC1=O | 53.1 | 1.6
10 | CC[C@H](C)[C@@H]1NC(=O)[C@H](CCCNC(=N)N)NC(=O)[C@H](CCCNC(=N)N)NC(=O)[C@@H](NC(=O)[C@H](Cc2ccc(O)cc2)NC(=O)[C@H](CCCNC(=N)N)NC(=O)[C@H](CCCNC(=N)N)NC(=O)[C@H](CCCNC(=N)N)NC(=O)[C@H](CCCNC(=N)N)NC(=O)[C@H](CC(=O)O)NC(=O)[C@H](Cc2ccc(O)cc2)NC(=O)[C@@H]2CCCN2C(=O)[C@H](CO)NC(=O)[C@H](CCCNC(=N)N)NC(=O)[C@@H]2CSSC[C@H](NC(=O)[C@@H](N)[C@@H](C)O)C(=O)N[C@@H](CCCNC(=N)N)C(=O)N[C@@H](CO)C(=O)N[C@@H](C)C(=O)NCC(=O)N[C@@H](CCCNC(=N)N)C(=O)N[C@@H](Cc3ccc(O)cc3)C(=O)N2)CSSC[C@@H](C(=O)N[C@H](C(=O)O)C(C)C)NC(=O)[C@H](C)NC(=O)[C@H](CC(=O)O)NC(=O)[C@H]([C@@H](C)O)NC1=O | 35.5 | 1.8
11 | CC[C@H](C)[C@@H]1NC(=O)[C@H](CCCNC(=N)N)NC(=O)[C@H](CCCNC(=N)N)NC(=O)[C@@H]2CSSC[C@H](NC(=O)[C@H](C)NC(=O)[C@H](CCCNC(=N)N)NC(=O)CNC(=O)[C@H](CO)NC(=O)[C@H](CO)NC(=O)[C@H](CCCNC(=N)N)NC(=O)[C@@H](NC(=O)[C@@H](N)[C@@H](C)O)CSSC[C@@H](C(=O)N[C@H](C(=O)O)C(C)C)NC(=O)[C@H](C)NC(=O)[C@H](CC(=O)O)NC(=O)[C@H]([C@@H](C)O)NC1=O)C(=O)N[C@@H](CCCNC(=N)N)C(=O)N[C@@H](CO)C(=O)N1CCC[C@H]1C(=O)N[C@@H](Cc1ccc(O)cc1)C(=O)N[C@@H](CC(=O)O)C(=O)N[C@@H](CCCNC(=N)N)C(=O)N[C@@H](CCCNC(=N)N)C(=O)N[C@@H](CCCNC(=N)N)C(=O)N[C@@H](CCCNC(=N)N)C(=O)N[C@@H](Cc1ccc(O)cc1)C(=O)N2 | 5.1 | 0.7
